# PSTVd loop 6 mutant pool in Nicotiana benthamiana

Source: Wu et al. 2024 (doi:10.1371/journal.ppat.1012142), supplementary data.

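Three N. benthamiana plants were inoculated with the whole mutant pool. Samples came from the inoculated region at 5 days, the leaf margin at 10 and upper systemic leaves at 12.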

Region: loop 6 of PSTVd (intermediate strain), upper and lower strand joined, each 5' to 3', the first 5 letters being the upper strand, closing pairs included. Wild type: UGACCGCGAG. Varied positions (N): UNNNCGNNNG.

Values are reads per thousand in the sample; higher means more abundant, 0 means not found.
Each value is the mean of three plants.
"Pool" is the share in the plasmid pool used as inoculum, on the same scale.
The inoculated region was read from the minus strand, the other sites from the plus strand.
Sequences that differ at fixed positions probably stem from PCR or sequencing errors, and defective variants can be carried along by functional ones.
For reference, wild type rose from 20.7 per thousand in the pool to 195, 198, 203 (inoculated region), 629, 591, 734 (leaf margin) and 942, 870, 868 (systemic leaves).
Samples held 36,220 to 57,551 reads, so the smallest values rest on one or two reads.

| # | sequence | pool | inoculated region | leaf margin | systemic leaves |
|---|---|---|---|---|---|
| 1 | UGGUCGGCUG | 0.353 | 0.101 | 0.00920 | 0 |
| 2 | UUCCUGAGCG | 0.0131 | 0 | 0 | 0 |
| 3 | UAGACGGUUG | 0.314 | 0.0890 | 0.00773 | 0 |
| 4 | UGGCCGCUAG | 0.183 | 0.709 | 0.103 | 0 |
| 5 | UUCACGACGG | 0.275 | 0.0959 | 0 | 0 |
| 6 | UAGACGACUG | 0.340 | 0.0597 | 0.00773 | 0 |
| 7 | UGUGCGGGCG | 0.196 | 0.0658 | 0 | 0 |
| 8 | UGUACGUUGG | 0.261 | 0.112 | 0.00773 | 0 |
| 9 | UCUCCGAUGG | 0.261 | 0.149 | 0.0168 | 0 |
| 10 | UCAGCACAGG | 0.0131 | 0 | 0 | 0 |
| 11 | UCUUCGCCGG | 0.261 | 0.101 | 0.00773 | 0 |
| 12 | UAUGCGACUG | 0.275 | 0.0533 | 0.00773 | 0 |
| 13 | UAAACGAGCG | 0.131 | 0.544 | 0.0782 | 0.0468 |
| 14 | UUUUCGCGAU | 0.0131 | 0.0664 | 0.00773 | 0 |
| 15 | UGUGCGGACG | 0.327 | 0.102 | 0 | 0 |
| 16 | UCUACGGCUG | 0.275 | 0.0591 | 0.00773 | 0 |
| 17 | UUAACGCUUG | 0.235 | 0.137 | 0.0155 | 0 |
| 18 | UGUUCGCUGG | 0.222 | 0.0599 | 0.00773 | 0 |
| 19 | UGGGCGGCUG | 0.196 | 0.0478 | 0.00773 | 0 |
| 20 | UUAUCGCCUG | 0.301 | 0.0415 | 0.00841 | 0 |
| 21 | UGAUCGAGUG | 0.196 | 0.0833 | 0 | 0 |
| 22 | UGUUCAGCGG | 0.0131 | 0 | 0 | 0 |
| 23 | UCAGCGAUAG | 0.196 | 0.108 | 0.0556 | 0 |
| 24 | UCAGCGAGUG | 0.222 | 0.0961 | 0 | 0.00599 |
| 25 | UACACGAGGG | 0.131 | 0.0715 | 0 | 0 |
| 26 | UCCACGUUAG | 0.288 | 0.0708 | 0 | 0 |
| 27 | UUGGCGGAUG | 0.431 | 0.0835 | 0.0155 | 0 |
| 28 | UCGUCGGGAG | 0.275 | 0.0950 | 0.00773 | 0 |
| 29 | UUUCCGUUUG | 0.510 | 0.179 | 0.00773 | 0.00684 |
| 30 | UGGUCGAAGG | 0.222 | 0.119 | 0.0169 | 0 |
| 31 | UCCGCGGUAG | 0.209 | 0.0659 | 0.00773 | 0 |
| 32 | UCCGCGCAAG | 0.183 | 0.173 | 0 | 0 |
| 33 | UUCUCGUCGG | 0.288 | 0.0527 | 0 | 0 |
| 34 | UCAACGGCAG | 0.131 | 0.552 | 0.103 | 0 |
| 35 | UACCCGACGG | 0.366 | 0.0656 | 0.0309 | 0 |
| 36 | UGUUCGACUG | 0.209 | 0.0947 | 0 | 0 |
| 37 | UGCACGCUAG | 0.105 | 0.0836 | 0 | 0.0399 |
| 38 | UACUCGUCGG | 0.183 | 0.0768 | 0.00920 | 0 |
| 39 | UGAACGUCAG | 0.314 | 0.719 | 0.0935 | 0 |
| 40 | UUCUCGGGUG | 0.288 | 0.0949 | 0 | 0 |
| 41 | UGGACGUUGG | 0.235 | 0.125 | 0 | 0 |
| 42 | UUGUCGAACG | 0.405 | 0.0480 | 0 | 0 |
| 43 | UAGUCGUGGG | 0.118 | 0.0660 | 0 | 0 |
| 44 | UGACCGUCAG | 0.484 | 0.220 | 0.911 | 0.135 |
| 45 | UCUACGGCCG | 0.209 | 0.0884 | 0.0261 | 0 |
| 46 | UCCUCGCGAU | 0.0131 | 0.0490 | 0.00773 | 0 |
| 47 | UAUGCGGAAG | 0.105 | 0.0784 | 0.00920 | 0 |
| 48 | UGCGCGGUAA | 0.0131 | 0.500 | 0.107 | 0 |

Extract of 4 entries:

- UUUUCGCGAU (pool 0.0131) = inoculated region 0.0664; leaf margin 0.00773; systemic leaves 0
- UGGCCGCUAG (pool 0.183) = inoculated region 0.709; leaf margin 0.103; systemic leaves 0
- UGUUCGCUGG (pool 0.222) = inoculated region 0.0599; leaf margin 0.00773; systemic leaves 0
- UCCGCGCAAG (pool 0.183) = inoculated region 0.173; leaf margin 0; systemic leaves 0